Reference: publication PMC8899467 (Frontiers in Pharmacology, 2022)

Amino acid sequences for entries named in this document (tags omitted). Residues count along the entry.
UniProt P30431, 151-571 limits assumed: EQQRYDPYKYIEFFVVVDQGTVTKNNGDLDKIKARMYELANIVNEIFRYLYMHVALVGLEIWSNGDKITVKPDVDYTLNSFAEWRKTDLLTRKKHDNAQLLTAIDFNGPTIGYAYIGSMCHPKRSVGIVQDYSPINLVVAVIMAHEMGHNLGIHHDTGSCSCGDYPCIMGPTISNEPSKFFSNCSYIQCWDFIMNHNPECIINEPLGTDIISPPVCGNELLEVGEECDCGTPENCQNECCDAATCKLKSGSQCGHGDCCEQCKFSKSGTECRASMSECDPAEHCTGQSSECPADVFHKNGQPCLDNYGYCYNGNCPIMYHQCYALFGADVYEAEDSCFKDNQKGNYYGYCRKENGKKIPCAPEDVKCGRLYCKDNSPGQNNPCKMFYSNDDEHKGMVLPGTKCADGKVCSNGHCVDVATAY

Columns and labels:
jararhagin [1] = molecular target: T1, jararhagin (Bothrops jararaca, UniProt P30431); assay: fibrinogen degradation (SDS-PAGE); Trp fluorescence change; conditions: bovine fibrinogen as substrate; fluorescence at 0.07375-1.18 mM SA, pH 8.0, 1 mM CaCl2
jararhagin [2] = molecular target: T1, jararhagin; assay: intrinsic Trp fluorescence quenching; conditions: 0.2 mg/ml jararhagin, 0.07375-1.18 mM rutin, 20 mM Tris, 140 mM NaCl, 1 mM CaCl2, pH 8.0, 1% DMSO

Row | SMILES | fibrinogen degradation (SDS-PAGE); Trp fluorescence change (jararhagin [1]) | intrinsic Trp fluorescence quenching (jararhagin [2])
1 | O=C(O)CCC(=O)O | RS and SA decreased the degradation of fibrinogen by jararhagin | –
2 | C[C@@H]1O[C@@H](OC[C@H]2O[C@@H](Oc3c(-c4ccc(O)c(O)c4)oc4cc(O)cc(O)c4c3=O)[C@H](O)[C@@H](O)[C@@H]2O)[C@H](O)[C@H](O)[C@H]1O [rutin] | – | rutin and RS decreased the fluorescence of Trp residues in BjV proteins (Figure 7A) and jararhagin
